Data as given in US20200002406A1 (Janssen / Centocor, published 2020).

Experiments:
Assay in all cases: cell-based or functional assay
[1] = molecular target: T1, neuraminidase (NA) of influenza B virus B/Florida/04/2006 (Yamagata lineage) (Influenza B virus B/Florida/04/2006)
[2] = molecular target: neuraminidase (NA) of influenza A virus H3N2 strain A/Perth/16/2009 (Influenza A virus A/Perth/16/2009 (H3N2))
[3] = molecular target: neuraminidase (NA) of influenza A virus H1N1 strain A/New Caledonia/20/1999 (Influenza A virus A/New …)
[4] = molecular target: T1, neuraminidase (NA) of influenza B virus …; remark: listed apart in the source

B1: CR14017 (antibody, V domains shown)
VH: EVQLVETGGGVVQPGRSLRLSCAASGFTFNTHAMHWVRQAPGKGLEWLAVISYDGNIKYYADSVKGRFTISRDSSKNTLYLLMNSLRAEDTAIYYCARDRGDYNYLPSDYWGQGTLVTVSS
VL: not shown
notes: also called sc14-017; anti-NA IgG
> 50 mg/L: Virus neutralization assay (VNA) on MDCK-SIAT1 cells, IC50 [1] | Neuraminidase inhibition activity, EC50 (NA-XTD assay, whole virus) [2] | Neuraminidase inhibition activity, EC50 (NA-XTD assay, whole virus) [3] | Neuraminidase inhibition activity, EC50 (NA-XTD assay, whole virus) [4]

B2: CR14012 (antibody, V domains shown)
VH: QVQLQESGGGVVQPGRSLRLSCAASGFSFSTYGMHWVRQAPGKGLEWVAVISYDGSNKYYADSVKGRFTISRDNAKNTLYLQMNSLRAEDTAVYYCGRDSGYTTNWYPGGYWGQGTLVTVSS
VL: not shown
notes: also called sc14-012; anti-NA IgG
> 50 mg/L: Virus neutralization assay (VNA) on MDCK-SIAT1 cells, IC50 [1] | Neuraminidase inhibition activity, EC50 (NA-XTD assay, whole virus) [2] | Neuraminidase inhibition activity, EC50 (NA-XTD assay, whole virus) [3] | Neuraminidase inhibition activity, EC50 (NA-XTD assay, whole virus) [4]
